Test results from PMC6031611, “Mycobacterium tuberculosis CarD, an essential global transcriptional regulator forms amyloid-like fibrils” (Scientific Reports, 2018).
Where “and” joins values, the source holds several entries; their conditions need not be identical. Equal entries are not always repeated.

Legend:
SEC-SAXS = molecular target: the molecule itself; assay: SEC-SAXS
[1] = molecular target: the molecule itself; assay: MALDI-TOF intact mass spectrometry

B1: C-terminal his-tagged CarD (CarD^His), Mycobacterium tuberculosis (natural protein)
chain: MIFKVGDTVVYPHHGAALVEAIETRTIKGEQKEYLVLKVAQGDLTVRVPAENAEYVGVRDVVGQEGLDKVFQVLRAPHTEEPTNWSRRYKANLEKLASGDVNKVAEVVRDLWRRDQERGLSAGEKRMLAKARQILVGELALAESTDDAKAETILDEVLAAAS
B1 was tested, and the “stoichiometry N” value (SEC-SAXS) was 2.

B2: native tagless CarD, Mycobacterium tuberculosis (natural protein)
chain: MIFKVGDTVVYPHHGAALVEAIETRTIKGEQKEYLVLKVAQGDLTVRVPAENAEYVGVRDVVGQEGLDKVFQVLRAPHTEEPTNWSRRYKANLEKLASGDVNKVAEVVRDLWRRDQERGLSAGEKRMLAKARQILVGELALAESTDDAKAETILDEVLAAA
In the case of B2, the “stoichiometry N” value [1] is reported as 2 and 3.
